Results deposited as PubChem BioAssay AID1259414 (Drosophila RNAi Screening Center, 2018)
The deposit covers about 24,000 reagents; below is a random part of those that have a named target and a result. In the full data, about 1,210 (5%) were called active. 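Inactive calls also include excluded dsRNAs with several or no targets, genes unexpressed in JW18, and well A1, regardless of score.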 Names joined by + are all predicted targets of the reagent.

Aim: 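Genome-wide screen for host control of endosymbiont load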 (primary screen)
Cells: Drosophila JW18 cells infected with Wolbachia
Reagent: long dsRNA against Drosophila genes, 0.25 µg dsRNA per well of a 384-well plate
Timing: 5 days
Challenge: cells persistently infected with Wolbachia before knock-down; no added drug
Measured: 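Automated imaging of bacterial rRNA staining divided by host cell count, reported as plate-normalised robust z-score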
Reading the numbers: Wolbachia per cell robust z: higher = more Wolbachia per host cell than the plate typical
Active means: 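Hit when robust z is 1.5 or more, or -1.5 or less, in at least two of three replicates; excludes dsRNAs with several or no targets, genes not expressed in JW18 and well A1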

| target gene | amplicon | Wolbachia per cell robust z, rep 1 | Wolbachia per cell robust z, rep 2 | Wolbachia per cell robust z, rep 3 | Outcome |
| --- | --- | --- | --- | --- | --- |
| snRNA:U1:82Eb (small nuclear RNA U1 at 82Eb) | DRSC37890 | -0.482 | 0.0617 | -0.525 | inactive |
| CG33511 | DRSC37783 | -0.124 | -0.968 | 0.42 | inactive |
| Polr1C (RNA polymerase I and III subunit C) | DRSC02719 | 0.713 | 2.09 | 1 | inactive |
| CG4679 | DRSC06880 | 0.727 | 0.575 | -2.56 | inactive |
| CG4679 | DRSC28357 | 0.65 | -1.52 | 0.78 | inactive |
| CG1698 | DRSC06640 | -0.713 | 0.763 | 0.286 | inactive |
| CG1698 | DRSC24314 | -0.266 | -0.109 | -0.423 | inactive |
| gkt (glaikit) | DRSC00821 | -1.24 | 0.0281 | -0.144 | inactive |
| Pbp95 (PSEA-binding protein 95kD) | DRSC15448 | 0.885 | -0.17 | -0.342 | inactive |
| Pbp95 (PSEA-binding protein 95kD) | DRSC27283 | -0.347 | 0.479 | 0.739 | inactive |
| CG43127 | DRSC41347 | 0.508 | -0.0588 | 0.00618 | inactive |
| CG9672 | DRSC20201 | 0.0801 | 0.874 | -2.81 | inactive |
| EloB (Elongin B) | DRSC16663 | 0.231 | -0.509 | -2.14 | inactive |
| Psn (Presenilin) | DRSC11743 | -0.296 | 0.38 | -0.101 | inactive |
| CR30029 (pseudo) | DRSC06724 | -1.05 | 0.401 | -0.483 | inactive |
| CG11470 | DRSC14313 | 0.17 | -0.388 | 0.956 | inactive |
| sub + Ir54a | DRSC06459 | 0.162 | 1.29 | -1.94 | inactive |
| CG13667 | DRSC10028 | 0.915 | 0.29 | 1.06 | inactive |
| CG32599 | DRSC19433 | 0.974 | -0.708 | -0.523 | inactive |
| CG32599 | DRSC26978 | 0.71 | 0.508 | 0.182 | inactive |
| Uros2 (Uroporphyrinogen III synthase 2) | DRSC16505 | 1.24 | -4.82 | 1.15 | inactive |
| AnxB11 (Annexin B11) | DRSC19331 | 0.185 | -0.579 | -1.67 | inactive |
| AnxB11 (Annexin B11) | DRSC26479 | -0.897 | 0.02 | 0.465 | inactive |
| Nlp (Nucleoplasmin) | DRSC16759 | -0.706 | -0.442 | 0.221 | inactive |
| Nlp (Nucleoplasmin) | DRSC26421 | 0.336 | 1.19 | 0.76 | inactive |
| l(3)L1231 (lethal (3) L1231) | DRSC16323 | 0.157 | 0.829 | 0.991 | inactive |
| park (parkin) | DRSC11618 | 0.456 | 1.2 | 0.646 | inactive |
| Sfp51E (Seminal fluid protein 51E) | DRSC40615 | 0.833 | -0.259 | -0.376 | inactive |
| Sfp51E (Seminal fluid protein 51E) | DRSC41468 | 0.425 | 0.309 | 0.839 | inactive |
| CG17660 | DRSC00513 | -0.595 | -3.65 | -0.298 | inactive |
| SelR (Selenoprotein R) | DRSC16071 | -0.634 | -0.493 | 0.214 | inactive |
| CG8664 | DRSC20116 | 0.36 | -0.685 | -0.42 | inactive |
| Glos + Gem4b + Gem4c | DRSC18244 | 0.869 | 0.246 | 0.881 | inactive |
| bon (bonus) | DRSC16914 | 0.708 | 0.0235 | 0.946 | inactive |
| pdgy (pudgy) | DRSC19064 | -8.21 | -0.381 | -0.391 | inactive |
| pdgy (pudgy) | DRSC19341 | -4.01 | -0.916 | 1.54 | inactive |
| CG8281 | DRSC10976 | 0.0158 | -0.462 | -2.52 | inactive |
| Cog8 (Component of oligomeric golgi complex 8) | DRSC02961 | 0.0369 | -0.0674 | -11.5 | inactive |
| DIP-lambda (Dpr-interacting protein lambda) | DRSC22174 | 1.11 | 0.53 | 1.16 | inactive |

6 entries from above, set out differently:
{"target gene":"Psn (Presenilin)","amplicon":"DRSC11743","Wolbachia per cell robust z, rep 1":-0.296,"Wolbachia per cell robust z, rep 2":0.38,"Wolbachia per cell robust z, rep 3":-0.101,"Outcome":"inactive"}
{"target gene":"CR30029 (pseudo)","amplicon":"DRSC06724","Wolbachia per cell robust z, rep 1":-1.05,"Wolbachia per cell robust z, rep 2":0.401,"Wolbachia per cell robust z, rep 3":-0.483,"Outcome":"inactive"}
{"target gene":"CG11470","amplicon":"DRSC14313","Wolbachia per cell robust z, rep 1":0.17,"Wolbachia per cell robust z, rep 2":-0.388,"Wolbachia per cell robust z, rep 3":0.956,"Outcome":"inactive"}
{"target gene":"sub + Ir54a","amplicon":"DRSC06459","Wolbachia per cell robust z, rep 1":0.162,"Wolbachia per cell robust z, rep 2":1.29,"Wolbachia per cell robust z, rep 3":-1.94,"Outcome":"inactive"}
{"target gene":"CG13667","amplicon":"DRSC10028","Wolbachia per cell robust z, rep 1":0.915,"Wolbachia per cell robust z, rep 2":0.29,"Wolbachia per cell robust z, rep 3":1.06,"Outcome":"inactive"}
{"target gene":"CG32599","amplicon":"DRSC19433","Wolbachia per cell robust z, rep 1":0.974,"Wolbachia per cell robust z, rep 2":-0.708,"Wolbachia per cell robust z, rep 3":-0.523,"Outcome":"inactive"}

Next records follow:
| target gene | amplicon | Wolbachia per cell robust z, rep 1 | Wolbachia per cell robust z, rep 2 | Wolbachia per cell robust z, rep 3 | Outcome |
| --- | --- | --- | --- | --- | --- |
| CG14565 | DRSC11726 | -0.364 | 0.886 | -1.03 | inactive |
| CG14565 | DRSC26063 | -0.756 | -3.25 | -0.72 | inactive |
| alpha-Est9 (alpha-Esterase-9) | DRSC12621 | 0.26 | 0.346 | -0.804 | inactive |
| CG34367 | DRSC02238 | 0.00387 | 0.287 | 0.98 | inactive |
| CG34367 | DRSC02850 | 0.503 | -3.84 | -0.0579 | inactive |
| CG34367 | DRSC28054 | 0.791 | 0.92 | 1.82 | inactive |
| Tsf3 (Transferrin 3) | DRSC06849 | -1.29 | 0.761 | -0.16 | inactive |
| sm (smooth) | DRSC05795 | 0.407 | -0.421 | -0.309 | inactive |
| sm (smooth) | DRSC07686 | 1.23 | -0.235 | 0.449 | inactive |
| sm (smooth) | DRSC40706 | -0.834 | 1.09 | 1.09 | inactive |
| CG5250 | DRSC15752 | 0.498 | -0.256 | 0.668 | inactive |
| Pi4KIIalpha (Phosphatidylinositol 4-kinase II alpha) | DRSC12322 | -1.38 | -3.93 | -0.525 | inactive |
| Pi4KIIalpha (Phosphatidylinositol 4-kinase II alpha) | DRSC12323 | 0.0111 | -0.752 | 0.0862 | inactive |
| Pi4KIIalpha (Phosphatidylinositol 4-kinase II alpha) | DRSC29095 | 1.2 | 0.607 | 0.725 | inactive |
| Jhbp12 (Juvenile hormone binding protein 12) | DRSC14621 | 0.0119 | -0.344 | -0.175 | inactive |
| CG2681 | DRSC18464 | -0.521 | 0.188 | 0.887 | inactive |
| CG2681 | DRSC24864 | 0.809 | -1.19 | -1.32 | inactive |
| CG8641 | DRSC11028 | -0.176 | 1.28 | 0.726 | inactive |
| CG18469 | DRSC21838 | -0.606 | -2.41 | -0.554 | inactive |
| CG10151 | DRSC05974 | -1.94 | -0.937 | -1.05 | inactive |
| CG10151 | DRSC27429 | -6.73 | -1.06 | -1.17 | inactive |
| dsb (debris buster) | DRSC08542 | -0.755 | -0.051 | 0.843 | inactive |
| CG11249 | DRSC11645 | -0.177 | -0.345 | -0.138 | inactive |
| Dbx | DRSC08271 | 1.03 | -0.139 | 0.228 | inactive |
| Dbx | DRSC08394 | 0.108 | -0.653 | 0.144 | inactive |
| Dbx | DRSC25311 | 0.0311 | 0.349 | -0.126 | inactive |
| Dbx | DRSC29604 | -1.36 | 0.257 | -1.26 | inactive |
| Dbx | DRSC39044 | -0.000528 | -0.818 | 0.406 | inactive |
| CG32436 | DRSC11683 | -0.47 | 0.421 | 0.312 | inactive |
| CG32436 | DRSC11796 | -4.33 | -9.92 | -6.11 | active |
